Data reported in paper PMC7193532 (Acta Crystallographica. Section D, Structural Biology, 2020).

How the values were obtained:
Mtb [1] = conditions: unpublished data
Mtb [2] = conditions: mutations at Leu92 and Leu96 of ClpC1; ref Gao et al., 2015; cited from earlier work

SMILES	MIC90 pattern for Mtb strains resistant to RUF-I and ECU (Mtb [1])	resistant strains (Mtb [2])
CN[C@H](C(=O)N[C@H](C(=O)N[C@@H]1C(=O)N(C)[C@@H]([C@@H](C)O)C(=O)N[C@@H](C(C)C)C(=O)N(C)[C@@H](CC(C)C)C(=O)N[C@@H](C(C)C)C(=O)N(C)[C@@H](C(C)C)C(=O)N(C)[C@@H](Cc2c[nH]c3cccc(OC)c23)C(=O)N[C@@H](C(C)C)C(=O)N[C@@H]([C@H](O)c2ccccc2)C(=O)N[C@@H](C(C)C)C(=O)O[C@@H]1C)C(C)C)C(C)C [OMS-A, ohmyungsamycin A]	a pattern consistent with ECU	–
CCC(C)C(C(=O)NC1C(=O)N(C)C(C(C)O)C(=O)NC(C(C)C)C(=O)N(C)C(CC(C)C)C(=O)NC(C(C)C)C(=O)N(C)C(C(C)C)C(=O)N(C)C(Cc2c[nH]c3cccc(OC)c23)C(=O)NC(C(C)C)C(=O)NC(C(O)c2ccccc2)C(=O)NC(C(C)C)C(=O)OC1C)N(C)C(=O)C(NC(=O)C(C(C)C)N(C)C)C(C)C (centres unmarked) [ECU, ecumicin]	–	three strains of Mtb with resistance
